Results deposited as PubChem BioAssay AID624099 (ICCB-Longwood, 2012)

- Assay: 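Human genes that papillomavirus E2 requires to repress the HPV18 LCR promoter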 (primary screen)
- Cells: human C33A cervical carcinoma cells (HPV-negative) stably expressing BPV1 E2 and an HPV18 LCR luciferase reporter
- Reagent: siRNA pool against human genes, 40 nM
- Time to read-out: 72 h
- Measurement: 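Per-well luciferase luminescence, z-scored on each plate against the plate mean and SD with control wells left out, then averaged across three replicate plates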
- Direction: mean z-score and z-score: higher = stronger reporter signal, weaker E2 silencing
- Rule for the call: 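Hit if mean z-score reaches 2 and two or more of three replicate z-scores also reach 2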
The deposit covers about 21,000 reagents; shown is a part drawn at random. 497 of them (2.4%) were called active. 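Higher z means weaker E2 silencing; only reporter increases were scored, and knock-downs that hurt cell survival may mask genuine repressor factors.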 Entries without a mark were called inactive.

Target gene | mean z-score | z-score, replicate A | z-score, replicate B | z-score, replicate C
ATXN1L (ataxin 1 like) | -0.05 | -0.41 | -0.07 | 0.32
CERCAM (cerebral endothelial cell adhesion molecule) | 0.77 | 0.8 | 0.74 | 0.79
H2AC20 (H2A clustered histone 20) | -1.08 | -1.39 | -0.92 | -0.94
RND3 (Rho family GTPase 3) | -1.12 | -1.45 | -0.87 | -1.04
LYPD1 (LY6/PLAUR domain containing 1) | -0.87 | -0.95 | -0.77 | -0.89
DEFB118 (defensin beta 118) | -0.52 | -0.73 | -0.46 | -0.36
ZNF23 (zinc finger protein 23) | 1.18 | 1.09 | 1.35 | 1.09
SIPA1L3 (signal induced proliferation associated 1 like 3) | 0.76 | 0.81 | 0.68 | 0.78
HIPK3 (homeodomain interacting protein kinase 3) | 1.18 | 1.05 | 1.49 | 1.02
THRA (thyroid hormone receptor alpha) | -1.56 | -1.33 | -1.83 | -1.52

A stretch from the list above, as a working copy:
Target gene | mean z-score | z-score, replicate A | z-score, replicate B | z-score, replicate C
LYPD1 (LY6/PLAUR domain containing 1) | -0.87 | -0.95 | -0.77 | -0.89
DEFB118 (defensin beta 118) | -0.52 | -0.73 | -0.46 | -0.36

The results go on.
Target gene | mean z-score | z-score, replicate A | z-score, replicate B | z-score, replicate C
WNT3 (Wnt family member 3) | 0.68 | 0.63 | 0.58 | 0.84
KLHDC7B (kelch domain containing 7B) | 2.88 (active) | 3 | 2.67 | 2.97
H3Y2 (H3.Y histone 2) | -1.18 | -1.38 | -1.15 | -1.01
RNF19A (ring finger protein 19A, RBR E3 ubiquitin protein ligase) | -0.12 | -0.32 | 0.17 | -0.2
ACAT2 (acetyl-CoA acetyltransferase 2) | -1.23 | -1.22 | -1.25 | -1.23
KLK3 (kallikrein related peptidase 3) | 0.15 | 0.08 | 0.38 | -0.01
AJM1 (apical junction component 1 homolog) | -0.6 | -0.68 | -0.31 | -0.81
GRM5 (glutamate metabotropic receptor 5) | -0.62 | -0.62 | -0.55 | -0.69
MTFR1L (mitochondrial fission regulator 1 like) | -0.04 | -0.05 | -0.03 | -0.04
MUC5AC (mucin 5AC, oligomeric mucus/gel-forming) | -0.36 | -0.3 | -0.34 | -0.43
FNTA (farnesyltransferase, CAAX box, subunit alpha) | -0.18 | -0.26 | -0.38 | 0.12
LOC439911 (retired record) | -0.31 | – | -0.37 | -0.25
NUMBL (NUMB like endocytic adaptor protein) | -0.2 | -0.06 | -0.2 | -0.33
